Earlier results in paper PMC9774897 (Antibiotics, 2022).

Test system: M. tuberculosis
Settings: REMA; ref [23]; cited from earlier work
From the text: Table 6 The general characteristics and the previously reported MIC of each antimicrobial peptide used in this study. | column: MIC (µg/mL)

## CC[C@H](C)[C@H](NC(=O)CN)C(=O)NCC(=O)N[C@@H](C)C(=O)N[C@H](C(=O)N[C@@H](CC(C)C)C(=O)N[C@@H](CCCCN)C(=O)N[C@H](C(=O)N[C@@H](CC(C)C)C(=O)N[C@H](C(=O)N[C@H](C(=O)NCC(=O)N[C@@H](CC(C)C)C(=O)N1CCC[C@H]1C(=O)N[C@@H](C)C(=O)N[C@@H](CC(C)C)C(=O)N[C@H](C(=O)N[C@@H](CO)C(=O)N[C@@H](Cc1c[nH]c2ccccc12)C(=O)N[C@H](C(=O)N[C@@H](CCCCN)C(=O)N[C@@H](CCCNC(=N)N)C(=O)N[C@@H](CCCCN)C(=O)N[C@@H](CCCNC(=N)N)C(=O)N[C@@H](CCC(N)=O)C(=O)N[C@@H](CCC(N)=O)C(N)=O)[C@@H](C)CC)[C@@H](C)CC)[C@@H](C)O)[C@@H](C)O)C(C)C)C(C)C [AM-mel]
  MIC: 32 to 64 µg/mL
